These results are taken from patent US20240033341A1.

Assay [1] has as its target 426c.TM4 gp120 (HIV-1 (clade C strain 426c, engineered)). Nature of the assay: flow cytometry of yeast displaying 426c.TM4 gp120, 3rd sort. (In general: A flow cytometer gives signals particle by particle.)
Assay [2] has as its target IGT1 gp120 (HIV-1 (clade C strain 426c, engineered)). Put plainly: SPR, IgG immobilized on CM5 chip, monomeric gp120 core as analyte, 1:1 model.
In assay [3] the target is IGT2 gp120 (HIV-1 (clade C strain 426c, engineered)). Described as above.
In assay [4] the target is 426c.TM4 gp120 (HIV-1 (clade C strain 426c, engineered)).
The target is the same in assay [5]. This is another data set of the same source.
The target is the same in assay [6]. The source holds these as a separate data set.
For assay [7] the target is unchanged. The source holds these as a separate data set.
The target in assay [8] is IGT1 gp120 (HIV-1 (clade C strain 426c, engineered)). Put plainly: ELISA, gp120 coated on the plate, IgG titrated. For orientation: ELISA stands for enzyme-linked immunosorbent assay.
For assay [9], the target named is IGT2 gp120 (HIV-1 (clade C strain 426c, engineered)). Put plainly: ELISA, gp120 coated on the plate, IgG titrated.
Assay [10] addresses 426c.TM4 gp120 (HIV-1 (clade C strain 426c, engineered)). Put plainly: flow cytometry of yeast displaying 426c.TM4 gp120 (panel 426c), Pre-Sort.
For assay [11] the target is unchanged. Nature of the assay: flow cytometry of yeast displaying 426c.TM4 gp120, pre-sort.

Like-named read-outs stand apart in the source and are kept apart here.

One may read the Kd as the concentration at which binding is half-saturated. Low values mean higher affinity, high ones lower affinity. In general, EC50 (read off the curve) refers to the concentration that produces a half-maximal response. A low value points to an effect from little substance. In the case of IOMA iGL IgG (antibody), the figures for the number in the upper right quadrant (cMyc-AF488 positive and IOMA iGL + α-IgG-AF647 positive; percent of events, unit not given) in assay [1] and in assay [11] were 0.029 and 0.15, respectively. For the same substance, the Kd came out at 30 µM in assay [2] and 0.5 µM in assay [3]. For the same substance, the number in the upper right quadrant (α-cMyc-AF488 positive and IOMA iGL + α-IgG AF647 positive; percent of events, unit not given) in [4] came out at 0.069; in assay [5] it was 0.09; in assay [6], 0.1; in assay [7], 0.029; in assay [10], 0.15. The EC50 (read off the curve) in assay [8] turned out to be 3 µg/mL; in assay [9], 2 µg/mL.
